Pooled drug test results. Numbers come from NIAID ChemDB, via PubChem.

All rows: growth or infection tests; organism: HIV-1

ECn is the concentration giving n% inhibition of infection, replication or growth. Rows are shuffled and stem from different studies. Blank or dashed fields: not listed here.

| compound | changes | strain or isolate | method | measure | cells | setting | result |
|---|---|---|---|---|---|---|---|
| c1cc(CN2CCCNCCNCCCNCC2)ccc1CN1CCCNCCNCCCNCC1 |  | JR-FL R5 | p24 | EC50 | PBMC |  | >10 µM |
| CCC[C@@]1(CCc2ccccc2)CC(O)=C([C@H](CC)c2cccc(NS(=O)(=O)c3ccc(C(F)(F)F)cn3)c2)C(=O)O1 |  | 6 clinical isolates AZT-resistant | p24 | EC50 | PBMC |  | <0.04 µM |
| O=c1[nH]cnc2c1ncn2[C@H]1CC[C@@H](CO)O1 |  | HXB2D | p24 | EC50 | CBMC |  | 6.4 ± 0.4 µM |
| Nc1nc(NC2CC2)c2ncn([C@H]3C=C[C@@H](CO)C3)c2n1 | RT-M41L S68N G112S M184V | Recombinant | luciferase | EC50 | HeLa |  | 2.3 µM |
| CC(C)CN(C[C@@H](O)[C@H](Cc1ccccc1)NC(=O)O[C@H]1CCOC1)S(=O)(=O)c1ccc(N)cc1 | PR-M46I L63P A71V V82F I84V | HXB2 | p24 | EC90 | PBMC |  | 1.33 µM |
| COc1ccc(S(=O)(=O)N(CC(C)C)C[C@@H](O)[C@H](Cc2ccccc2)NC(=O)O[C@H]2CO[C@H]3OCC(F)(F)[C@H]32)cc1 | L23I E34Q K43I M46I I50L G51A L63P A71V V82A T91A ATV resistant | NL4-3 |  | EC50 | MT-4 |  | 0.02 µM |
| Cn1c2ccccc2c2c1cc(C#N)c(=O)n2-c1ccc([N+](=O)[O-])cc1 | RT-V106I Y188L | NNRTI-resistant | luciferase | EC50 | HeLa |  | 0.0069 µM |
| CC(=O)Oc1ccc(/C=C/C(=O)O[C@@H](C(=O)O)[C@@H](OC(=O)/C=C/c2ccc(OC(C)=O)c(OC(C)=O)c2)C(=O)O)cc1OC(C)=O | AR177-resistant | NL4-3 | cytopathic effect / MTT | EC50 | MT-4 |  | >74 µM |
| CC(C)(C)NC(=O)[C@@H]1C[C@@H]2CCCC[C@@H]2CN1C[C@@H](O)[C@H](Cc1ccccc1)NC(=O)[C@H](CC(N)=O)NC(=O)c1ccc2ccccc2n1 | L23I E34Q K43I M46I I50L G51A L63P A71V V82A T91A ATV resistant | NL4-3 |  | EC50 | MT-4 |  | 0.46 µM |
| COc1cncc(-c2cnc(C(C)(C)N3CCN(C[C@@H](O)C[C@@H](Cc4nnc(-c5ccccc5)o4)C(=O)N[C@H]4c5ccccc5OC[C@H]4O)[C@H](C(=O)NCC(F)(F)F)C3)o2)c1 | PR-L10I N37S R41K M46I I54V I62V L63P A71V V77I V82A L90M I93L | Q-60 Clinical isolate | p24 | EC50 | MT-4 |  | <0.5 µM |
| Cc1cn([C@H]2C[C@H](N=[N+]=[N-])[C@@H](CO)O2)c(=O)[nH]c1=O |  | GB8 | p24 | EC50 | JM |  | >100 µM |
| CC(C)CN(C[C@@H](O)[C@H](Cc1ccccc1)NC(=O)O[C@H]1CO[C@H]2OCC(F)(F)[C@H]21)S(=O)(=O)c1ccc(N)cc1 | L10F V32I M46I I45M A71V I84V APV resistant | NL4-3 |  | EC50 | MT-4 |  | 0.56 µM |
| Cc1cn([C@H]2C[C@H](N=[N+]=[N-])[C@@H](CO)O2)c(=O)[nH]c1=O | RT-M41L L74V L210W T215Y | X267-1 NRTI resistant | p24 | EC50 | PBMC |  | 0.6 µM |
| Nc1ccn([C@H]2CC[C@@H](CO)O2)c(=O)n1 |  | PDBC | RT activity | EC50 | MT-2 |  | 0.23 µM |
| Cc1cn([C@H]2C[C@H](N=[N+]=[N-])[C@@H](CO)O2)c(=O)[nH]c1=O | RT-D67G | HxB2D(RT-D67G) | RT activity | EC50 | CBMC |  | 0.0021 µM |
| Nc1nc2c(ncn2[C@H]2CO[C@@H](CO)O2)c(=O)[nH]1 |  | IIIB |  | EC50 | CBMC |  | 0.032 µM |
| CC(C)=CCN1Cc2cc(Cl)cc3[nH]c(=S)n(c23)C[C@@H]1C |  | BaL | p24 | EC50 | MM + M/M |  | 0.05 µg/mL |
| CC(C)=CCN1Cc2cccc3[nH]c(=S)n(c23)C[C@@H]1C |  | PDBC | RT activity | EC50 | MT-2 |  | 0.26 µM |
| CC[C@H](C)[C@@H](C(=O)O)n1sc2ccccc2c1=O |  | ROJO | p24 / RT activity | EC50 | PBMC |  | 7.2 µM |
| Fc1cccc(Cl)c1C1OCc2nc3ccccc3n21 | RT-L100I | TIBO R82150-resistant (RT L100I) | cytopathic effect / MTT | EC50 | CEM |  | 7.71 µM |
| Cc1cn([C@H]2C[C@H](N=[N+]=[N-])[C@@H](CO)O2)c(=O)[nH]c1=O | A114S/M184V | Clinical isolate | single cycle / fluorescence | EC50 | PBMC |  | 0.00246 µM |
| O=c1[nH]cnc2c1ncn2[C@H]1CC[C@@H](CO)O1 |  | NL4-3 WT | p24 | EC90 | PBMC |  | 18 µM |
| Cc1cn([C@H]2C[C@H](N=[N+]=[N-])[C@@H](CO)O2)c(=O)[nH]c1=O | RT-K65R Y115F | Site-directed mutant | cytopathic effect / XTT | EC50 | MT-2 |  | 0.196 µM |
| CC(C)Nc1cccnc1N1CCN(C(=O)c2cc3cc(NS(C)(=O)=O)ccc3[nH]2)CC1 | RT-V106A | IIIB | syncytia | EC50 | CEM |  | 0.15 ± 0.07 µM |
| S=C(NCCc1cccs1)Nc1ccc(Br)cn1 | RT-M41L D67N L210W T215Y | J179-1 Clinical isolate NRTI-resistant | plaque count | EC50 | HT4 + HeLa |  | 0.055 µM |
| Nc1nc(=O)n([C@@H]2CO[C@H](CO)S2)cc1F | RT-M184I | HXB2D(RT-M184I) | RT activity | EC50 | MT-4 |  | 27 µM |
| Cc1ccnc2c1NC(=O)c1cccnc1N2C1CC1 |  | D79 | p24 / ELISA | EC50 | Macrophage + Monocytes/macrophages |  | 0.026 µM |
| Cc1nnc(C[C@H](C[C@H](O)CN2CCN(C(C)(C)c3ncc(-c4ccc(F)cc4)o3)C[C@H]2C(=O)NCC(F)(F)F)C(=O)N[C@H]2c3ccccc3OC[C@H]2O)o1 |  | NL4-3 WT | p24 | EC95 | MT-4 |  | 0.125 µM |
| O=C1CN=C(c2ccc[nH]2)c2cc(Cl)ccc2N1 |  | IIIB/LAI | antigen | EC50 | MOLT-4 (CLONE 8) + MOLT-4 |  | 0.4 µM |
| CC(C)CN(C[C@@H](O)[C@H](Cc1ccccc1)NC(=O)O[C@H]1CCOC1)S(=O)(=O)c1ccc(N)cc1 |  | NL4-3 | p24 / luminescence | EC50 | MT-4 |  | 0.0249 µM |
| Cc1cn([C@H]2C[C@H](N=[N+]=[N-])[C@@H](CO)O2)c(=O)[nH]c1=O |  | CLADE B | cytopathic effect / XTT | EC50 | PBMC | clinical isolate | 0.01 µM |
| Nc1nc(=O)n([C@H]2CO[C@@H](CO)S2)cc1F | RT-M184V | HXB2D (RT-M184V) | RT activity | EC50 | CBMC |  | 10 µM |
| Cc1ccnc2c1NC(=O)c1cccnc1N2C1CC1 | RT-V179D | IIIB | cytopathic effect | EC50 | CEM |  | 0.25 µg/mL |
| O=c1c2ccccc2n2nnc3ccc(NCCCN4CCN(CCCNc5ccc6nnn7c8ccccc8c(=O)c5c67)CC4)c1c32 |  | IIIB | cytopathic effect / XTT | EC50 | CEM + CEM-SS |  | 0.0056 µM |
| O=C(N[C@H]1c2ccccc2OC[C@H]1O)[C@H](Cc1nnco1)C[C@H](O)CN1CCN(Cc2ccc(-c3ccc(Cl)cc3)o2)C[C@H]1C(=O)NCC(F)(F)F | PR-L10I M46I I54V Q58E L63P I64V V77I V82F I84V L90M I93L | K-60 Clinical isolate | p24 | EC50 | MT-4 |  | <0.063 µM |
| Fc1cccc(F)c1C1OCc2nc3ccccc3n21 | RT-L100I | TIBO R82150-resistant (RT L100I) | cytopathic effect / MTT | EC50 | CEM |  | 6.58 µM |
| CCCN(C)C(=O)Oc1nsnc1-c1c(Cl)ccc(N)c1Cl |  | IIIB | MTT | EC50 | MAGI |  | 0.019 µM |
| Cc1cn([C@H]2C[C@H](N=[N+]=[N-])[C@@H](CO)O2)c(=O)[nH]c1=O | RT-M184V | XM-M184V | p24 | EC50 | MT-4 |  | <0.009 µM |
| CC(C)CN(C[C@@H](O)[C@H](Cc1ccccc1)NC(=O)[C@H](CC(N)=O)NC(=O)c1ccc2ccccc2n1)C(=O)NC(C)(C)C | PR-L10R M46I | NL4-3 | p24 | EC95 | MT-4 |  | 0.2 µM |
| Cc1cn([C@H]2C=C[C@@H](CO)O2)c(=O)[nH]c1=O | RT-K65R M184V | Site-directed mutant | cytopathic effect / XTT | EC50 | MT-2 |  | 9.38 µM |
| Cc1cn([C@H]2C[C@H](N=[N+]=[N-])[C@@H](CO)O2)c(=O)[nH]c1=O | RT-M184V | Recombinant | luciferase | EC50 | HeLa |  | 0.0304 µM |
| CC(C)(C)NC(=O)[C@@H]1C[C@@H]2CCCC[C@@H]2CN1C[C@@H](O)[C@H](Cc1ccccc1)NC(=O)[C@H](CC(N)=O)NC(=O)c1ccc2ccccc2n1 | PR-L10R L63P V82T I84V | NL4-3 | p24 | EC50 | MT-4 |  | <0.1 µM |
| CCO/N=C(\c1ccc(Br)cc1)C1CCN(C2(C)CCN(C(=O)c3c(C)cc[n+]([O-])c3C)CC2)CC1 |  | BAL(G) R5 CLADE B | p24 | EC50 | PBMC |  | 0.02 µM |
| CC(C)=CCN1Cc2cc(Cl)cc3[nH]c(=S)n(c23)C[C@@H]1C | RT-L74V Y181C | HXB2 | plaque count | EC50 | HT4 + HT4 LacZ-1 |  | 4 µM |
| CC(C)CN(C[C@@H](O)[C@H](Cc1ccccc1)NC(=O)[C@@H](NC(=O)CNCc1cccc(F)c1)C(C)(C)C)S(=O)(=O)c1ccc(N)cc1 |  | RF | virus yield | EC50 | MT-2 |  | <0.0078 µM |
| Cc1cn([C@@H]2O[C@H](CO[Si](C)(C)C(C)(C)C)C3(OS(=O)(=O)C=C3N)[C@H]2O[Si](C)(C)C(C)(C)C)c(=O)n(C)c1=O |  | IIIB | syncytia | EC50 | PBL |  | 0.046 µg/mL |
| Cc1cn([C@H]2C[C@H](N=[N+]=[N-])[C@@H](CO)O2)c(=O)[nH]c1=O |  | D148/88 | p24 / ELISA | EC50 | PBMC |  | 0.566 µM |
| CCCc1nnc(C[C@H](C[C@H](O)CN2CCN(Cc3ccc(-c4ccc(Cl)cc4)o3)C[C@H]2C(=O)NCC(F)(F)F)C(=O)N[C@H]2c3ccccc3OC[C@H]2O)o1 |  | NL4-3 WT | p24 | EC95 | MT-4 |  | ≤0.008 µM |
| COC(=O)[C@H](C)NP(=O)(OC[C@@H]1C=C[C@H](n2cc(C)c(=O)[nH]c2=O)O1)Oc1ccc(Br)cc1 | RT-V35T E40D K173T R211K L214F | G3 R5 subtype G/- (env/gag) | p24 | EC50 | PBMC |  | 0.0005 µM |
| O=c1[nH]cnc2c1ncn2[C@H]1CC[C@@H](CO)O1 | RT-D67G | HxB2D(RT-D67G) | RT activity | EC50 | CBMC |  | 3 µM |
| Cc1nnc(C[C@H](C[C@H](O)CN2CCN(Cc3ccc(-c4ccc(Cl)cc4)o3)C[C@H]2C(=O)NCC(F)(F)F)C(=O)N[C@H]2c3ccccc3OC[C@H]2O)o1 | PR-L10I N37S R41K M46I I54V I62V L63P A71V V77I V82A L90M I93L | Q-60 Clinical isolate | p24 | EC95 | MT-4 |  | 0.031 µM |
| CC(C)CN(C[C@@H](O)[C@H](Cc1ccccc1)NC(=O)[C@H](CC(N)=O)NC(=O)c1ccc2ccccc2n1)C(=O)NC(C)(C)C | PR-G48V A71T V82A | RF |  | EC50 | MT-2 |  | 1.11 µM |
| Cc1cn([C@H]2C[C@H](N=[N+]=[N-])[C@@H](CO)O2)c(=O)[nH]c1=O | KM018 | Clinical isolate | ELISA | EC50 | PBMC |  | 0.141 µM |
| O=c1[nH]cnc2c1ncn2[C@H]1CC[C@@H](CO)O1 |  | HXB2 | p24 | EC50 | C8166 |  | 2.9 µM |
| COC(=O)N[C@H](C(=O)N[C@@H](Cc1ccccc1)[C@@H](O)CN(Cc1ccc(-c2ccccn2)cc1)NC(=O)[C@@H](NC(=O)OC)C(C)(C)C)C(C)(C)C |  | ERS104pre | p24 / luminescence | EC50 | PBMC |  | 0.0027 µM |
| O=C(N[C@H]1c2ccccc2OC[C@H]1O)[C@H](Cc1nnc(-c2ccccc2)o1)C[C@H](O)CN1CCN(Cc2ccc(-c3ccc(Cl)cc3)o2)C[C@H]1C(=O)NCC(F)(F)F |  | NL4-3 WT | p24 | EC95 | MT-4 |  | 0.0156 µM |
| Cc1cn([C@H]2C[C@H](N=[N+]=[N-])[C@@H](CO)O2)c(=O)[nH]c1=O |  | 410 clinical isolates AZT-resistant | p24 | EC90 | PBMC |  | 6.6 µM |
| CCC[C@@]1(CCc2ccccc2)CC(O)=C([C@H](CC)c2cccc(NS(=O)(=O)c3ccc(C(F)(F)F)cn3)c2)C(=O)O1 | L23I E34Q K43I M46I I50L G51A L63P A71V V82A T91A | NL4-3 | p24 / luminescence | EC50 | MT-4 |  | >1 µM |
| CCCc1nnc(C[C@H](C[C@H](O)CN2CCN(C(C)(C)c3ncc(-c4ccc(F)cc4)o3)C[C@H]2C(=O)NCC(F)(F)F)C(=O)N[C@H]2c3ccccc3OC[C@H]2O)o1 | PR-L10I M46I I54V Q58E L63P I64V V77I V82F I84V L90M I93L | K-60 Clinical isolate | p24 | EC50 | MT-4 |  | <0.016 µM |

Again, the opening 5 rows:

compound | changes | strain or isolate | method | measure | cells | setting | result
c1cc(CN2CCCNCCNCCCNCC2)ccc1CN1CCCNCCNCCCNCC1 |  | JR-FL R5 | p24 | EC50 | PBMC |  | >10 µM
CCC[C@@]1(CCc2ccccc2)CC(O)=C([C@H](CC)c2cccc(NS(=O)(=O)c3ccc(C(F)(F)F)cn3)c2)C(=O)O1 |  | 6 clinical isolates AZT-resistant | p24 | EC50 | PBMC |  | <0.04 µM
O=c1[nH]cnc2c1ncn2[C@H]1CC[C@@H](CO)O1 |  | HXB2D | p24 | EC50 | CBMC |  | 6.4 ± 0.4 µM
Nc1nc(NC2CC2)c2ncn([C@H]3C=C[C@@H](CO)C3)c2n1 | RT-M41L S68N G112S M184V | Recombinant | luciferase | EC50 | HeLa |  | 2.3 µM
CC(C)CN(C[C@@H](O)[C@H](Cc1ccccc1)NC(=O)O[C@H]1CCOC1)S(=O)(=O)c1ccc(N)cc1 | PR-M46I L63P A71V V82F I84V | HXB2 | p24 | EC90 | PBMC |  | 1.33 µM